The test has as its target Virion infectivity factor (Human immunodeficiency virus type 1 group M subtype B (isolate BH10)) + Virion infectivity factor (Human immunodeficiency virus type 1 group M subtype B (isolate BRU/LAI)) + Virion infectivity factor (Human immunodeficiency virus type 1 group M subtype B (isolate PCV12)) + Virion infectivity factor (Human immunodeficiency virus type 1 group M subtype B (isolate HXB2)) + DNA dC->dU-editing enzyme APOBEC-3G (Homo sapiens) (UniProt P69720+P69721+P69722+P69723+Q9HC16). Briefly: HIV-1 Vif–A3G interaction blockers – biochemical, TR-FRET, GST-Vif 1-94, biotin-A3G peptide, dose response retest, primary screen (AID 1117319).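 Further: Vif residues 1-94 fused to GST binding biotinylated APOBEC3G peptide 110-148.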 The conditions noted are these: TR-FRET GST-Vif / biotin-A3G peptide binding. On the technique in general: Time-resolved FRET reads energy transfer from a long-lived donor to a nearby acceptor.

The chains behind the UniProt entries cited, without tags or fusion partners. Where a name states a change or a piece, a line headed by the entry shows the natural chain unless it says otherwise.
UniProt P69720: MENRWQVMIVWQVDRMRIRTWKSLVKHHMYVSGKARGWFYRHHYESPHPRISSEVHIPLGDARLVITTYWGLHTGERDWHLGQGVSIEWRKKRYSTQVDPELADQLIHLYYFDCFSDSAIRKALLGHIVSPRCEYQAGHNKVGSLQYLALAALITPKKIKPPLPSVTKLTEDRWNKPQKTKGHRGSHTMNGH
UniProt P69721: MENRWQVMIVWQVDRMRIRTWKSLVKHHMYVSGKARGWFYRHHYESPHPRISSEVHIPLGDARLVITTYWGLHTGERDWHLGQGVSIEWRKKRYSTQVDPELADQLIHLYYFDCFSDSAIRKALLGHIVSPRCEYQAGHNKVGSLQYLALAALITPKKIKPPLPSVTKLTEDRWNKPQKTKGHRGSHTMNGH
UniProt P69722: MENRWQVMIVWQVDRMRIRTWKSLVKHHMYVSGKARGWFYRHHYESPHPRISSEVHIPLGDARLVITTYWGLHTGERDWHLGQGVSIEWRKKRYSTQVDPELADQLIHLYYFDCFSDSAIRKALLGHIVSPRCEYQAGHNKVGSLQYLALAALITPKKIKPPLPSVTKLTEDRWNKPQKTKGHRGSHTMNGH
UniProt P69723: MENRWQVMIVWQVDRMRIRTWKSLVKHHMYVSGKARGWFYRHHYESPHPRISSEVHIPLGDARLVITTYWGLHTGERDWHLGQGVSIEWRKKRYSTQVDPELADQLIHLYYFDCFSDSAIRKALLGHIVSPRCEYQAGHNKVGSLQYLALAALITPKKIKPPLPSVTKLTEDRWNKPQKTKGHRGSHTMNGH
UniProt Q9HC16: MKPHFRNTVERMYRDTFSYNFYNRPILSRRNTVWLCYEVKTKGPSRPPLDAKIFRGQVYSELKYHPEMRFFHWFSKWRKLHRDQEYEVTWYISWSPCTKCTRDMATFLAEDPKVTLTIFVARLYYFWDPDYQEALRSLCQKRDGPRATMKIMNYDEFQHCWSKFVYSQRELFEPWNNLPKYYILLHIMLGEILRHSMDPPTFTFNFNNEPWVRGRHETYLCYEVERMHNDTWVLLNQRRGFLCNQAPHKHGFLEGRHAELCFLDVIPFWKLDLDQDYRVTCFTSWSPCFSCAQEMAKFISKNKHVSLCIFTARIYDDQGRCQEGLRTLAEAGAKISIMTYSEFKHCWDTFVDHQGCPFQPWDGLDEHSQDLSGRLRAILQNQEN

Inconclusive results are not listed.

A word on the IC50: it is the concentration that gives 50% inhibition.

For the compound `Oc1ccc(/C=N/NC(=S)Nc2cccnc2)c(O)c1O`, the 50% inhibitory concentration (IC50) was 1370 nM.

Values taken from PubChem BioAssay AID1117319 (Southern Research Institute, 2015).
